Assay: Lung pathology of uninfected (PBS) control mice given oseltamivir
Conditions: PBS instead of virus; 20 mg/kg/day oseltamivir phosphate by gavage 0 to 4 dpi

CCOC(=O)C1=C[C@@H](OC(CC)CC)[C@H](NC(C)=O)[C@@H](N)C1
Pathological changes in lung tissue of uninfected mice: no obvious pathological changes in the lung tissue of mice

Source: article PMC8358046
